Test results as given in patent US20220280513A1, “ENHANCING THE ANTIVIRAL EFFICACY OF RNA VIRUS INHIBITION BY COMBINATION WITH MODULATORS OF PYRIMIDINE METABOLISM” (The Board of Trustees of the Leland Stanford Junior …, priority 2019, published 2022).

Tested on: intracellular uridine and cytidine nucleotide levels
Assay: LC-MS/MS analysis of intracellular nucleotides in A549 cells
Type: cell-based
Settings: 250 μM with 1 μM GSK983, 5 μM uridine, 6 h
Description: FIG. 7. LC-MS analysis of intracellular nucleotides. (A) LC-MS analysis of intracellular uridine and cytidine nucleotide levels after 6 h treatments. In all assays, the culture medium was supplemented with 5 μM uridine and 1 μM GSK983. Error bars represent ±S.D. of two replicates. (B) LC-MS detection of mono-, di- and tri-phosphates of CPU and 5-F-CPU in cells. LC-MS/MS was performed on an Agilent 1290 infinity II LC system tandem with 6370 triple quad mass spectrometer using ion pairing chromatography. LC separation was performed at 40° C. with a solvent flow rate of 0.25 mL/min on a Zorbax RRHD Extended-C18 column (2.1×150 mm, 1.8 μM). Buffer A contained 97% H2O, 3% MeOH, 5 mM tributylamine, 5.5 mM Acetic acid and 1 μM medronic acid with pH=5.0; Buffer B contains ca. 100% MeOH, 5 mM tributylamine, 5.5 mM Acetic acid and 5 μM medronic acid with pH=7.0 The initial mobile phase composition was 100% solvent A, and a constant or linear gradient was applied after sample injection with eluent B varying as follows: 0% at 2.5 min, 20% at 7.5 min, 45% at 14 min, 99% at 20 to 23 min, and 0% from 23.1 to 27.1 min. […] Samples were measured in the negative ESI mode with capillary voltage at −3.5 kV. […]
With optimized sampling and detection method in hand, pyrimidine nucleotide levels were measured in cells cultured with either 250 μM CPU, 5-F-CPU or 5′-F-CPU in combination with 1 μM GSK983 (FIG. 7A). […]

SMILES	detection of the triphosphate in cells by LC-MS
O=c1[nH]c(=O)n([C@@H]2C=C(CO)[C@@H](O)[C@H]2O)cc1F [5-F-CPU, 1-((1R,4R,5S)-4,5-dihydroxy-3-(hydroxymethyl)cyclopent-2-en-1-yl)-5-fluoropyrimidine-2,4(1H,3H)-dione]	could be detected
O=c1ccn([C@@H]2C=C(CO)[C@@H](O)[C@H]2O)c(=O)[nH]1 [CPU, 1-((1R,4R,5S)-4,5-dihydroxy-3-(hydroxymethyl)cyclopent-2-en-1-yl)pyrimidine-2,4(1H,3H)-dione]	could be detected
